PubChem BioAssay AID1224833, University of Georgia | 2016
The deposit covers about 12,000 reagents; this is an unselected part. About 5,600 of all reagents (46%) were called active. 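Active calls cover z-scores past 1 in both directions, so they include lowered as well as raised rotavirus replication.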

Screen: 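Human genes whose knock-down alters rotavirus replication in monkey cells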 (primary screen)
Cell system: monkey MA104 kidney cells
Knock-down reagent: siRNA pool against human genes, 50 nM
Time to read-out: 48 h knock-down before infection; read 24 h after infection
Treatment: infection with rotavirus strain RV3 two days after transfection; infectious dose for this stage not given
Measurement: 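z-score of rotavirus antigen signal per well, from a fluorescent immunoassay, relative to non-targeting control wells on the same plate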
Direction: z-score vs non-targeting control: higher = more rotavirus replication than with non-targeting control
Call rule: In these data the active calls have z-score vs non-targeting control at about -1 or lower, or at about 1 or higher
Meaning of the calls: active = z-score beyond 1 either way; inactive = z-score within 1 of zero

target gene	z-score vs non-targeting control	Outcome
RTP3	-0.345	inactive
MAGEB1	-0.371	inactive
CNTNAP4	-0.0834	inactive
ZNF248	-0.625	inactive
CEPT1	0.644	inactive
TAFA3	-0.0328	inactive
RAPGEF1	0.0879	inactive
H2BC17	-3.66	active
FRAT2	-2.39	active

The list goes on; the last 2 above are carried over.
target gene	z-score vs non-targeting control	Outcome
H2BC17	-3.66	active
FRAT2	-2.39	active
RAB7B	0.938	inactive
CBLN4	1.31	active
PGLYRP1	-0.585	inactive
SH3GL3	-1.57	active
UGT1A5	2.66	active
DENND5A	0.0244	inactive
